Article PMC12212376 (Antiviral research, 2025)

Protein sequences, listed by entry. Tags and fused reporters are not part of them. Residues count along the entry.
UniProt Q9IH63, 27-109 partner limits assumed: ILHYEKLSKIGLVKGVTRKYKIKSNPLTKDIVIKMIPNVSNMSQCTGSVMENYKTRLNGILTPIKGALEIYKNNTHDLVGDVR
UniProt Q9IH63, 110-546 limits assumed: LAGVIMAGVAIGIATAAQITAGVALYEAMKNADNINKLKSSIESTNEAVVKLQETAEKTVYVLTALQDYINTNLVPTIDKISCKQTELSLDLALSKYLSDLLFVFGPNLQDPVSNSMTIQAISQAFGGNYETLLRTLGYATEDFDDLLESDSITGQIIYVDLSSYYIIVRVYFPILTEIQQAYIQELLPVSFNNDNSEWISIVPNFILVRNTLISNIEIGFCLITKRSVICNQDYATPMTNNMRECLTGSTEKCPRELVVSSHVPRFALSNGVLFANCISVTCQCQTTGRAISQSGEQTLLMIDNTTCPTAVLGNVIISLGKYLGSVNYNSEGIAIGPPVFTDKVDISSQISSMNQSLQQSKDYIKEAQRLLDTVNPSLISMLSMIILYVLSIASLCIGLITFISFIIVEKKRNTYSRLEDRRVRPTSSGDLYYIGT

Target: viral glycoproteins (Nipah G and F) (Nipah virus, UniProt Q9IH63)
Experiment: cell-based
Settings: IC50, fusion assay

CC[C@H](C)[C@H](NC(=O)[C@H](CO)NC(=O)[C@H](CC(=O)O)NC(=O)[C@H](CC(C)C)NC(=O)[C@@H](NC(=O)[C@H](CCCCN)NC(=O)[C@H](CC(N)=O)NC(=O)[C@H](CO)NC(=O)[C@H](CCCNC(=N)N)NC(=O)[C@H](CCCNC(=N)N)NC(=O)[C@@H](NC(=O)[C@H](Cc1c[nH]c2ccccc12)NC(=O)[C@H](CCC(=O)O)NC(=O)[C@H](CCCCN)NC(=O)[C@H](CO)NC(=O)[C@H](CCC(=O)O)NC(=O)[C@H](CCC(=O)O)NC(=O)[C@H](CC(C)C)NC(=O)[C@H](CC(=O)O)NC(=O)[C@H](CO)NC(=O)[C@H](CCCCN)NC(=O)[C@@H](NC(=O)[C@H](CCCCN)NC(=O)[C@H](CC(N)=O)NC(=O)[C@H](CC(C)C)NC(=O)[C@@H](NC(=O)[C@@H](NC(=O)[C@H](CO)NC(=O)[C@@H](NC(=O)[C@H](CC(=O)O)NC(=O)[C@@H](NC(=O)[C@@H]1CCCN1C(=O)[C@H](CC(=O)O)NC(=O)[C@H](CC(C)C)NC(=O)[C@H](C)NC(=O)[C@@H](NC(C)=O)C(C)C)[C@@H](C)CC)[C@@H](C)CC)[C@@H](C)CC)C(C)C)[C@@H](C)CC)[C@@H](C)CC)[C@@H](C)CC)C(=O)NCC(=O)N[C@@H](CO)C(=O)NCC(=O)N[C@@H](CO)C(=O)NCC(=O)NC(CSCC(=O)NCCOCCOCCOCCOCCC(=O)O[C@H]1CC[C@@]2(C)C(=CC[C@H]3[C@@H]4CC[C@H]([C@H](C)CCCC(C)C)[C@@]4(C)CC[C@@H]32)C1)C(N)=O (some centres unmarked) [VIKI-chol-PEG4]
IC50 (after nebulization): 4.5 nM
IC50 (before nebulization): 3.97 nM
